The results in this text go back to PubChem BioAssay AID720533 (National Center for Advancing Translational Sciences (NCATS), 2013).

Only a part is listed here, and it is no random draw. Inconclusive results are not listed. Where a call stands in place of a potency, no number is given. Calls of active or inactive are those of the source. The call rests on the fitted dose curve; tested in HEK293 cells.
Potency means the concentration at half of the fitted maximal effect.

This test is described as follows: qHTS for Inhibitors of binding or entry into cells for Lassa Virus. The conditions noted are these: Lassa virus pseudotyped entry inhibition, cell-based qHTS; series mostly up to 49.2 µM. A general note: qHTS replaces the single test concentration by a dilution series.
Turning to `O=[N+]([O-])CC(O)c1ccc([N+](=O)[O-])cc1` (centres undefined), the Potency entry was “inactive”.
Consider `NC(=O)Nc1ccc([As](=O)(O)O)cc1`, for which the Potency entry is “inactive”.
Under `CN(CCCl)Cc1cc(Cl)c(NC2=NCCN2)c(Cl)c1` stands active: 35.5 µM.
In the case of `CCC(C)(OOC(C)(C)C)OOC(C)(C)C`, the Potency entry was “inactive”.
The result for `CN(C(=O)Cc1ccccc1)[C@H]1CC[C@@]2(CCCO2)C[C@@H]1N1CCCC1` reads “inactive”; that for `Cc1cc([N+](=O)[O-])cc([N+](=O)[O-])c1O`, active: 44.7 µM; that for `O=C(OC1CN2CCC1CC2)c1ccccc1` (centres undefined), “inactive”.
The result for `CCNC(C)Cc1ccc2c(c1)OCO2` (centres undefined) reads “inactive”.
Turning to `CC(=O)C1=CCCC2CCC1N2` (centres undefined), the Potency entry is “inactive”.
